PubChem BioAssay AID1259414, Drosophila RNAi Screening Center – 2018
Assay: 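Fly genes that alter Wolbachia amount inside host cells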 (primary screen). System: Drosophila JW18 cells infected with Wolbachia. Reagents: long dsRNA against Drosophila genes, 0.25 µg dsRNA per well of a 384-well plate. Duration: 5 days. Treatment: cells persistently infected with Wolbachia before knock-down; no added drug. Detection: 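Imaged fluorescence in situ signal for Wolbachia 23S rRNA per DAPI-counted host cell, given as a robust z-score within each plate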. Scale: Wolbachia per cell robust z: higher = more Wolbachia per host cell than the plate typical. Call rule: 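Active if absolute robust z reaches 1.5 in two or more of three replicates, leaving out multi- or no-target dsRNAs, genes unexpressed in JW18 and A1 wells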.
In all, the deposit lists about 24,000 reagents; shown is a random part of those that have a named target and a result. In the full data, about 1,210 (5%) were called active. 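Inactive calls also include excluded dsRNAs with several or no targets, genes unexpressed in JW18, and well A1, regardless of score.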 Unmarked entries are inactive. Names joined by + are all predicted targets of the reagent.

gene	DRSC id	Wolbachia per cell robust z, rep 1	Wolbachia per cell robust z, rep 2	Wolbachia per cell robust z, rep 3
RpL41 (Ribosomal protein L41)	DRSC22958	1.16	-0.456	-0.792
CG6441	DRSC02957	0.383	-6.33	-0.72
CG3744	DRSC15511	-0.0234 (active)	-2.61	-2.63
CG3744	DRSC29964	-0.348	-6.73	-0.262
eIF4H2 (eukaryotic translation initiation factor 4H2)	DRSC14582	-0.137	-0.337	0.275
eIF4H2 (eukaryotic translation initiation factor 4H2)	DRSC27363	0.306	0.491	0.151
Atac3 (Ada2a-containing complex component 3)	DRSC08579	0.356	-1.77	0.876
CG14302	DRSC14781	0.913	0.931	0.677
Lcp9 (Larval cuticle protein 9)	DRSC04287	0.413	0.358	0.554
Neb-cGP	DRSC17991	-0.257	0.303	-0.185
CG8089	DRSC07074	-3.58 (active)	0.494	-1.88
GEFmeso (Guanine nucleotide exchange factor in mesoderm)	DRSC06748	-2.24	0.379	-1.03
GEFmeso (Guanine nucleotide exchange factor in mesoderm)	DRSC06940	1.13	0.465	0.849
GEFmeso (Guanine nucleotide exchange factor in mesoderm)	DRSC21475	-1.76 (active)	-1	-1.54
CG8915	DRSC20119	-3.4	-0.374	0.443
RpL35A (Ribosomal protein L35A)	DRSC12302	0.441	1.27	2.93
CG17996 + Tsen2	DRSC02650	-0.899	0.00426	-0.883
CG11052	DRSC14288	-1.8	0.172	0.854
825-Oak + CG32213 + CG32214 + 2 more	DRSC22210	0.972	-1.04	-0.617
GstZ1 (Glutathione S transferase Z1)	DRSC16478	-1.56	0.735	0.0978
Tip60 (Tat interactive protein 60kDa)	DRSC18661	-0.0443	-7.12	1.75
SiaT (Sialyltransferase)	DRSC04494	0.161	-0.0318	-0.232
NAAT1 (Nutrient Amino Acid Transporter 1)	DRSC18300	1.29	0.0866	1.52
NAAT1 (Nutrient Amino Acid Transporter 1)	DRSC25615	0.846	1.8	0.0887
CG33252	DRSC19162	-0.963	-0.505	-0.367
CG10909	DRSC14282	1.02	0.356	-0.523
CG15676	DRSC04267	0.675	0.499	0.762
CG15676	DRSC27015	-2.03	0.513	-0.794
CG32221	DRSC09638	-1.07	0.24	-0.074
CG14505	DRSC06476	-1.34	-6.63	-1.87
CG1941	DRSC06802	-1.06	-1.99	-1.08
CG9014	DRSC01979	0.0862	1.61	0.844
CG8777	DRSC07263	1.37	0.54	-0.231
Ccp84Ab	DRSC12587	0.267	-0.00176	0.291
Ccp84Ab	DRSC25096	-0.26	0.172	0.21
Pis (Phosphatidylinositol synthase)	DRSC20178	-2.96	-0.914	0.702
Pis (Phosphatidylinositol synthase)	DRSC29976	0.283	0.873	0.00205
AP-1gamma (Adaptor Protein complex 1, gamma subunit)	DRSC18433	-1.33	1.01	0.134
CG8197	DRSC07105	-0.543	1.06	0.691
SecCl (Secretory chloride channel)	DRSC10887	-0.694	1.68	-0.527
CG34453	DRSC38689	-0.262	-3.43	0.547
CG3339	DRSC13821	0.507	0.156	0.399
CG3339	DRSC15479	-2.88	0.2	1.34
MFS15 (Major Facilitator Superfamily Transporter 15)	DRSC06523	1.01	0.766	1.24
MFS15 (Major Facilitator Superfamily Transporter 15)	DRSC28274	1.62	1.18	1
CG8547	DRSC07211	-0.141	0.0733	-0.05
CG8547	DRSC28818	0.954	1.25	1.81
Taf3 (TBP-associated factor 3)	DRSC17170	-0.334	-0.0987	-5.5
Taf3 (TBP-associated factor 3)	DRSC29650	-1.53 (active)	-6.67	-0.693
CG18557	DRSC38932	-1.74	-3.12	-2.8
CG2604	DRSC12313	0.94	0.0786	0.812
CG2604	DRSC29919	-0.859	-1.08	-8.85
LSm-4 + CG17768	DRSC02845	-1.18	0.264	-4.59
CG5039	DRSC15703	-0.672	-0.428	-3.6
CG5039	DRSC27367	0.0402	0.396	0.123
loqs (loquacious)	DRSC02997	-0.629	0.18	-0.365
Syt1 (Synaptotagmin 1)	DRSC00156	0.789	0.345	0.53
Syt1 (Synaptotagmin 1)	DRSC00157	-0.0317	-0.241	-0.0669
Syt1 (Synaptotagmin 1)	DRSC00158	-0.0137	0.33	1.07
Syt1 (Synaptotagmin 1)	DRSC00840	-6.68	0.244	-0.208
Syt1 (Synaptotagmin 1)	DRSC22077	1.07	0.942	-0.259
Syt1 (Synaptotagmin 1)	DRSC27456	0.509	-1.67	-5.56
dsd (distracted)	DRSC13829	-0.863	-0.276	0.133
dsd (distracted)	DRSC15850	-0.426	-0.55	0.335
wech	DRSC06606	0.61	0.0604	0.169
ogre (optic ganglion reduced)	DRSC18809	-0.21	-0.236	-0.242
ogre (optic ganglion reduced)	DRSC24730	0.854	-0.28	0.133
CG33722 + CG18749	DRSC12674	-7.8	0.0703	-1.07
CG33722 + CG18749	DRSC28983	-0.264	0.717	-0.709
pyd3	DRSC15459	-1.33	-1.42	-0.593
pyd3	DRSC21640	-1.28	-0.99	-0.634
CG14644	DRSC12230	0.175	0.441	-1.4
Irp-1B (Iron regulatory protein 1B)	DRSC16720	-4.92 (active)	-4.74	-1.71
Irp-1B (Iron regulatory protein 1B)	DRSC24261	-1.22	-0.221	-1.33
dpr3 (defective proboscis extension response 3)	DRSC00395	-0.526	-2.79	-1.57
dpr3 (defective proboscis extension response 3)	DRSC00396	0.0198	1.39	-0.146
Cen (Centrocortin)	DRSC02704	0.183	-0.289	0.031
CG11356	DRSC19401	0.0245	0.801	-0.195
CG8476	DRSC16426	-2.99	-0.101	1.27
CG8476	DRSC27865	1.11	-0.062	0.536
VhaAC45 (Vacuolar H[+] ATPase AC45 accessory subunit)	DRSC07058	0.539	0.828	1.85
trus (toys are us)	DRSC15772	0.535	0.0451	0.144
trus (toys are us)	DRSC25521	-1.65 (active)	-6.14	0.439
CG9132	DRSC20159	0.124 (active)	-6.61	-8.13
Taldo (Transaldolase)	DRSC04320	-0.603	1.44	0.647
Taldo (Transaldolase)	DRSC27470	0.483	0.841	0.14
CG32091	DRSC10820	0.395	0.447	-0.0452
